Measured values reported in article PMC9095805, “Structural and molecular basis for foot-and-mouth disease virus neutralization by two potent protective antibodies” (Protein & Cell, 2021).

B1: single-domain antibody M8 (VHH)
VHH: QVQLQESGGGLVQPGGSLRLSCVASGTVFSINDISINHLGWYRQAPGKERELVAAITADGTSAYEDSVKGRFIISRDDAKKMVYLQMNSLKPEDTAVYYCNGLRASNAGWEPRFGTWGQGTQVTVSS
notes: also called mAb M8; NAb M8
B2: single-domain antibody M170 (VHH)
VHH: QVQLQESGGGLVQAGGSLRLSCAASGRTFSSYAMGWFRQAPGSEREFVARISWSGGSTYYADSVKGRFTISRDNAKNTVYLQMNSLKPEDTAVYYCTAGFALPPSDYWGQGTQVTVSS
notes: also called NAb M170

Experiments:
Test in all cases: ELISA
Conditions in all cases: both partners purified
[1] = target: T1, foot-and-mouth disease virus type A particle (FMDV serotype A, A24/Cruzeiro/BRA/55 (A …, UniProt P03309, strain))
T1 construct: copies: + + +

[2] = target: T2, foot-and-mouth disease virus type Asia 1 particle (Foot-and-mouth disease virus serotype …, UniProt A2I7M2, strain)
T2 construct: copies: + + +

[3] = target: T3, foot-and-mouth disease virus type C particle (FMDV serotype C; assayed …, UniProt P15072, strain)
T3 construct: copies: + + +

Binder	binding result [1]	binding result [2]	binding result [3]
B1	binds	binds	binds
B2	no binding		
